Measured values from several laboratories, pooled; numbers as filed in NIAID ChemDB.

Shared fields: target-level tests; agent: HIV-1; target: Reverse transcriptase; read-out: IC50

ICn: concentration for n% inhibition. Lines come from different laboratories, so protocols vary. An empty or dashed field is not shown.

smiles | changes | strain | value
Cc1cc(C)c(-n2nnnc2SCC(=O)Nc2ccc([N+](=O)[O-])cc2C)c(C)c1 | RT-K103N | - | 0.495 µM
CC(C)=CCOc1cc(NC(=S)c2ccoc2C)ccc1Cl | RT-L100I | - | 10.2 µM
C[C@H](NC(=S)Nc1ccc(Br)cn1)c1cccc2ccccc12 | - | - | >100 µM
C/C=C/CSc1cc(NC(=S)c2ccsc2C)ccc1Cl | RT-E138K | - | 3.8 µM
Cc1cccc2c1nc(-c1c(F)cccc1F)n2Cc1c(F)c(F)c(F)c(F)c1F | - | - | <10 µM
Cc1cccc(NC(=S)N[C@@H](C)c2ccccc2)n1 | - | - | >100 µM
Cc1cc(C)c(-n2nnnc2SCC(=O)Nc2ccc(C(=O)NCCCN(C)C)cc2Cl)c(C)c1 | RT-K103N | - | 0.01 µM
O=C(c1c(F)cccc1F)n1c(-c2c(F)cccc2F)nc2ccccc21 | - | - | <10 µM
Cc1cc(C)c(-n2nnnc2SCC(=O)Nc2ccccc2[N+](=O)[O-])c(C)c1 | RT-K103N | - | 0.009 µM
CNc1ccc(Cl)cc1S(=O)(=O)c1ccccc1[N+](=O)[O-] | RT-V106A | - | 2 µM
Fc1cccc(F)c1Cn1c(-c2c(F)cccc2F)nc2c(Br)cccc21 | - | - | <10 µM
Cc1occc1C(=S)Nc1ccc(Cl)c(/C=N/OC(C)(C)C)c1 | RT-V106A | - | 12.7 µM
CCOC(=O)Cc1csc(NC(=S)NC[C@@H](C)c2ccccc2)n1 | - | - | >100 µM
Cc1cccc2c1nc(-c1ccncc1)n2Cc1c(F)cccc1F | - | - | <10 µM
Cc1cc(C)c(-n2nnnc2SCC(=O)Nc2ccccc2Cl)c(C)c1 | RT-K103N | - | 0.015 µM
c1ccc(C2SCc3nc4ccccc4n32)cc1 | RT-V108I | - | >50 µM
CCc1c(Sc2ccccn2)n(COCc2ccccc2)c(=O)[nH]c1=O | - | WT | 7 µM
Fc1cccc(F)c1Cn1c(-c2c(F)cccc2F)nc2cc(Br)ccc21 | - | - | >10 µM
Cc1ccc(NC(=S)NC[C@H](C)c2ccccc2)nc1 | - | - | 0.52 µM

Again, the opening 2 rows:

smiles,changes,strain,value
Cc1cc(C)c(-n2nnnc2SCC(=O)Nc2ccc([N+](=O)[O-])cc2C)c(C)c1,RT-K103N,-,0.495 µM
CC(C)=CCOc1cc(NC(=S)c2ccoc2C)ccc1Cl,RT-L100I,-,10.2 µM